Pooled drug test results. Numbers come from NIAID ChemDB, via PubChem.

Shared fields: host cell toxicity; cells: PRK; read-out: CC50

CCn is the concentration with n% toxicity to the cells.

smiles	result
Nc1nccc2c1ncn2[C@@H]1C[C@H](CO)[C@@H](O)[C@H]1O	>500 µg/mL
C=CCc1nc(C)n2c(=O)[nH]c(NC(C)=O)nc12	200 µg/mL
Nc1ncnc2c1ncn2C[C@H](O)CO	>5 µg/mL
Cc1nc(Cc2ccccc2)c2[nH]c(=S)[nH]c(=O)n12	200 µg/mL
N=C(N)CCNC(=O)c1c[nH]c(NC(=O)c2c[nH]c(NC(=O)CCCCCCCC(=O)Nc3c[nH]c(C(=O)Nc4c[nH]c(C(=O)NCCC(=N)N)c4)c3)c2)c1	≥100 µg/mL
Nc1ncnc2c1ncn2[C@@H]1C=C(CO)[C@@H](O)C1	>50 µg/mL
O=c1[nH]c(=O)n([C@@H]2OC3COP(=O)(O)OC3[C@H]2O)cc1F	≥100 µg/mL
Cc1cn([C@H]2O[C@H](CO)[C@@H](N=[N+]=[N-])[C@H]2F)c(=O)nc1N	>400 µg/mL
Nc1nc(=O)n([C@H]2C[C@H](O)[C@@H](CO)O2)cc1/C=C/Cl	>400 µg/mL
NC1CSCON2CCc3c([nH]c4ccccc34)[C@H]12	≥10 µg/mL
C=CCc1ncn2c(=O)[nH]c(NC(C)=O)nc12	200 µg/mL
Nc1nc2c(ncn2[C@@H]2O[C@H](CO)[C@@H](F)[C@H]2O)c(=O)[nH]1	200 µg/mL
Nc1ncnc2c1ncn2[C@@H]1C=C(CO)[C@@H](O)[C@@H]1O	>5 µg/mL
CON1CCc2c([nH]c3ccccc23)[C@@H]1[C@@H](N)CSC	200 µg/mL
O=c1[nH]c(=O)n([C@@H]2C[C@H](CO)[C@@H](O)C2)cc1I	>400 µg/mL
O=c1[nH]c(=O)n([C@@H]2OC3COP(=O)(O)OC3[C@H]2O)cc1Br	400 µg/mL
O=c1[nH]c(=O)n(C2CC(CO)[C@H](O)C2)cc1I	>400 µg/mL
Nc1ncnc2c1ncn2C1CC(CO)[C@@H](O)[C@H]1O	10 µg/mL
N=C(N)CCNC(=O)c1c[nH]c(NC(=O)c2c[nH]c(NC(=O)CCCCCCC(=O)Nc3c[nH]c(C(=O)Nc4c[nH]c(C(=O)NCCC(=N)N)c4)c3)c2)c1	≥10 µg/mL

For reference, 2 entries again:

C=CCc1nc(C)n2c(=O)[nH]c(NC(C)=O)nc12 ; result: 200 µg/mL
N=C(N)CCNC(=O)c1c[nH]c(NC(=O)c2c[nH]c(NC(=O)CCCCCCCC(=O)Nc3c[nH]c(C(=O)Nc4c[nH]c(C(=O)NCCC(=N)N)c4)c3)c2)c1 ; result: ≥100 µg/mL

Neighbouring rows are from separate reports.